Compound potency records, mixed from different reports. Data source: NIAID ChemDB in PubChem.

Common to all: tests in culture; agent: HIV-1

An empty or dashed field is not shown.

| structure | mutations | read by | endpoint | cells | strain | result |
|---|---|---|---|---|---|---|
| O=C(c1ccccc1)N(CCc1ccccc1)C[C@H](O)CN(CC1CCCC1)S(=O)(=O)c1nc2ccccc2o1 | - | p24 | EC90 | CEM | IIIB | 1 µM |
| Cc1cc(S(N)(=O)=O)ccc1NC(=O)COc1ccc(Cl)cc1C(=O)c1cc(Cl)cc(C#N)c1 | RT-L100I | β-galactosidase | fold resistance | HeLa + HELA CD4+ | HXB2 | ~1 |
| O=C1Nc2ccc(Cl)cc2[C@@](C#CC2CC2)(C(F)(F)F)N1 | RT-V108I | - | EC90 | - | - | <0.012 µM |
| CC(C)C1=C2[C@H]3CC[C@@H]4[C@@]5(C)CC[C@H](OC(=O)[C@H]6C[C@@H](C(=O)O)C6(C)C)C(C)(C)[C@@H]5CC[C@@]4(C)[C@]3(C)CC[C@@]2(CCNCC(C)(C)NC(=O)c2ccc(Cl)cc2OCCN(C)C)CC1=O | - | p24 / ELISA | EC50 | MT-2 | 92HT599 | <1 µM |
| Cc1cc(S(N)(=O)=O)ccc1NC(=O)COc1ccc(Cl)cc1C(=O)c1cccc(C#N)n1 | RT-P236L | β-galactosidase | fold resistance | HeLa + HELA CD4+ | HXB2 | ~1 |
| CC(C)(C)NC(=O)c1ccccc1C(=O)C(=O)C(=O)N(CC1CCCC1)S(=O)(=O)c1ccccc1 | - | p24 | EC90 | CEM | IIIB | 1 µM |
| Cc1ccc(C)n1-c1ccc(C(=O)O)c(O)c1 | - | p24 | EC90 | PBMC + MT-2 | 94UG103 X4R5 CLADE A | 31.24 µM |
| CC(C)C1=C2[C@H]3CC[C@@H]4[C@@]5(C)CC[C@H](OC(=O)[C@H]6C[C@@H](C(=O)O)C6(C)C)C(C)(C)[C@@H]5CC[C@@]4(C)[C@]3(C)CC[C@@]2(CCNCC(C)(CO)NC(=O)c2ccc(Cl)cc2)CC1=O | - | p24 / ELISA | EC50 | MT-2 | 92HT599 | <1 µM |
| O=C1Nc2ccc(F)c(F)c2[C@@](C#CC2CC2)(C(F)(F)F)N1 | RT-V106A | - | EC90 | - | - | <0.012 µM |
| Cc1cc(C#N)cc(C(=O)c2cc(Cl)ccc2OCC(=O)Nc2ccc(S(N)(=O)=O)nc2C)c1 | RT-K103N G190A | β-galactosidase | fold resistance | HeLa + HELA CD4+ | HXB2 (RT-K103N G190A) Recombinant | ~1 |
| CC(C)C1=C2[C@H]3CC[C@@H]4[C@@]5(C)CC[C@H](OC(=O)[C@H]6C[C@@H](C(=O)O)C6(C)C)C(C)(C)[C@@H]5CC[C@@]4(C)[C@]3(C)CC[C@@]2([C@@H](O)CNC(=O)C(C)(C)C)CC1=O | - | p24 / ELISA | EC50 | MT-2 | 92HT599 | <1 µM |
| CC(C)CC(NS(=O)(=O)c1ccccc1)C(F)(F)C(=O)[C@H](Cc1ccccc1)NC(=O)O[C@H]1CCOC1 | - | p24 | EC90 | CEM | IIIB | 1 µM |
| Cc1nc(C)c(C(=O)NCC[C@@]23CC[C@]4(C)[C@H](CC[C@@H]5[C@@]6(C)CC[C@H](OC(=O)[C@H]7C[C@@H](C(=O)O)C7(C)C)C(C)(C)[C@@H]6CC[C@]54C)C2=C(C(C)C)C(=O)C3)s1 | - | p24 / ELISA | EC50 | MT-2 | 92HT599 | <1 µM |
| Cc1cc(C#N)cc(C(=O)c2cc(Cl)ccc2OCC(=O)Nc2ccc(OCCCN3CC=CC3)cc2C)c1 | RT-K103N Y181C | β-galactosidase | fold resistance | HeLa + HELA CD4+ | HXB2 (RT-K103N Y181C) Recombinant | ~1 |
| CC(C)CN(CC(O)CCN(CC1CCCC1)S(=O)(=O)c1ccc(O)cc1)S(=O)(=O)c1ccccc1 | - | p24 | EC90 | CEM | IIIB | 1 µM |
| Cc1cc(CNC[C@H](O)[C@@]23CC[C@]4(C)[C@H](CC[C@@H]5[C@@]6(C)CC[C@H](OC(=O)[C@H]7C[C@@H](C(=O)O)C7(C)C)C(C)(C)[C@@H]6CC[C@]54C)C2=C(C(C)C)C(=O)C3)c(C)o1 | - | p24 / ELISA | EC50 | MT-2 | 92HT599 | <1 µM |
| Cc1cc(C)cc(C(=O)c2cc(Cl)ccc2OCC(=O)Nc2ccc(S(N)(=O)=O)cc2C)c1 | RT-G190A | β-galactosidase | fold resistance | HeLa + HELA CD4+ | HXB2 | ~1 |
| CC(C)C1=C2[C@H]3CC[C@@H]4[C@@]5(C)CC[C@H](OC(=O)[C@H]6C[C@@H](C(=O)O)C6(C)C)C(C)(C)[C@@H]5CC[C@@]4(C)[C@]3(C)CC[C@@]2(CC(=O)NCc2ccc(CN3CCN(C)CC3)cc2)CC1=O | - | p24 / ELISA | EC50 | MT-2 | 92HT599 | <1 µM |
| Cc1cc2cn[nH]c2cc1NC(=O)COc1ccc(Cl)cc1C(=O)c1cccc(C#N)c1 | RT-V108I | β-galactosidase | fold resistance | HeLa + HELA CD4+ | HXB2 | ~100 |
| CC(C)C1=C2[C@H]3CC[C@@H]4[C@@]5(C)CC[C@H](OC(=O)[C@H]6C[C@@H](C(=O)O)C6(C)C)C(C)(C)[C@@H]5CC[C@@]4(C)[C@]3(C)CC[C@@]2(CCNCc2ccc3nc(-c4ccccc4)[nH]c3c2)CC1=O | - | p24 / ELISA | EC50 | MT-2 | 92HT599 | <1 µM |
| Cc1cc(S(N)(=O)=O)ccc1NC(=O)COc1ccc(Cl)cc1C(=O)c1cc(C#N)cc(C#N)c1 | RT-V106A | β-galactosidase | fold resistance | HeLa + HELA CD4+ | HXB2 | ~1 |

Again, the opening 3 rows:

{"structure": "O=C(c1ccccc1)N(CCc1ccccc1)C[C@H](O)CN(CC1CCCC1)S(=O)(=O)c1nc2ccccc2o1", "read by": "p24", "endpoint": "EC90", "cells": "CEM", "strain": "IIIB", "result": "1 µM"}
{"structure": "Cc1cc(S(N)(=O)=O)ccc1NC(=O)COc1ccc(Cl)cc1C(=O)c1cc(Cl)cc(C#N)c1", "mutations": "RT-L100I", "read by": "β-galactosidase", "endpoint": "fold resistance", "cells": "HeLa + HELA CD4+", "strain": "HXB2", "result": "~1"}
{"structure": "O=C1Nc2ccc(Cl)cc2[C@@](C#CC2CC2)(C(F)(F)F)N1", "mutations": "RT-V108I", "endpoint": "EC90", "result": "<0.012 µM"}

Rows are shuffled and stem from different studies. ECn is the concentration giving n% inhibition of infection, replication or growth. Fold resistance: result on the changed form divided by that on wild type.